Measurements reported in PubChem BioAssay AID1259414 (Drosophila RNAi Screening Center, 2018)

- Test: 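Genome-wide screen for host control of endosymbiont load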 (primary screen)
- Cells: Drosophila JW18 cells infected with Wolbachia
- Knock-down reagent: long dsRNA against Drosophila genes, 0.25 µg dsRNA per well of a 384-well plate
- Timing: 5 days
- Conditions: cells persistently infected with Wolbachia before knock-down; no added drug
- Detection: 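Automated imaging of bacterial rRNA staining divided by host cell count, reported as plate-normalised robust z-score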
- Scale: Wolbachia per cell robust z: higher = more Wolbachia per host cell than the plate typical
- Hit rule: 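Hit when robust z is 1.5 or more, or -1.5 or less, in at least two of three replicates; excludes dsRNAs with several or no targets, genes not expressed in JW18 and well A1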
The deposit covers about 24,000 reagents; below is a random part of those that have a named target and a result. In the full data, about 1,210 (5%) got an active call. 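Inactive calls also include excluded dsRNAs with several or no targets, genes unexpressed in JW18, and well A1, regardless of score.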 A number with no mark means an inactive call. Reagents against one gene are numbered here. A plus sign joins genes that one reagent is predicted to hit.

| gene | reagent | Wolbachia per cell robust z, rep 1 | Wolbachia per cell robust z, rep 2 | Wolbachia per cell robust z, rep 3 |
| --- | --- | --- | --- | --- |
| CG17159 + CG17162 | 1 | -1.03 | 0.208 | -0.899 |
| CG17159 + CG17162 | 2 | 0.424 | 0.787 | 0.576 |
| CG34164 | 1 | -1.09 | 0.727 | -0.913 |
| frtz | 1 | 1.69 | -1.52 | -1.18 |
| CG9447 | 1 | 0.433 | -0.603 | 0.37 |
| Scgalpha | 1 | -0.869 | 0.945 | -0.863 |
| Scgalpha | 2 | 0.0619 | 1.02 | 0.274 |
| Scgalpha | 3 | -1.75 | -1.63 | -3.21 |
| CG6961 + CG18259 | 1 | -0.301 | -1.06 | 0.157 |
| CG6961 + CG18259 | 2 | 0.241 | 0.27 | 0.391 |
| CG34150 | 1 | 0.494 | 0.795 | 1 |
| Alp4 | 1 | 1.07 | 0.157 | -4.4 |
| Rbfox1 | 1 | -3.24 | 0.525 | 0.356 |
| Rbfox1 | 2 | -0.599 | -0.526 | -1.12 |
| Rbfox1 | 3 | 0.041 (active) | -1.52 | -2.45 |
| Rbfox1 | 4 | -1.21 | -1.68 | -0.434 |
| mtg | 1 | 1.15 | 0.791 | 0.274 |
| mtg | 2 | -1.07 | 0.854 | 2.26 |
| APC4 | 1 | 0.059 | 0.105 | -4.62 |
| APC4 | 2 | -0.15 | 0.764 | -0.923 |
| CG11865 | 1 | 0.245 | 0.869 | 1.02 |
| CG11865 | 2 | 0.474 | 0.116 | 1.07 |
| Tig | 1 | 1.09 | 1.34 | 1.57 |
| Tig | 2 | 0.623 | 0.266 | 1.24 |

Looked up above:
For “Wolbachia per cell robust z, rep 1”, CG11865 #2 reads 0.474
Under “Wolbachia per cell robust z, rep 3”, Rbfox1 #2 has -1.12
Under “Wolbachia per cell robust z, rep 2”, CG17159 + CG17162 #2 reads 0.787
Value of Tig #1 in “Wolbachia per cell robust z, rep 3”: 1.57

Further records:
| gene | reagent | Wolbachia per cell robust z, rep 1 | Wolbachia per cell robust z, rep 2 | Wolbachia per cell robust z, rep 3 |
| --- | --- | --- | --- | --- |
| CG7137 | 1 | 0.219 | 0.306 | -0.732 |
| CG11836 | 1 | 0.543 | 0.118 | 0.00284 |
| CG6472 | 1 | 0.524 | 0.732 | -1.94 |
| Polr2C | 1 | 1.24 | -0.398 | -10.6 |
| Polr2C | 2 | 0.933 | 1.56 | 0.844 |
| tank | 1 | -0.763 | -0.543 | -1.75 |
| CG5397 | 1 | -0.541 | 1.74 | -0.438 |
| CG5397 | 2 | 0.52 | 0.609 | -0.332 |
| CR18228 | 1 | -5.94 | 0.922 | 0.826 |
| CG43338 | 1 | 0.716 | -0.423 | -0.209 |
| CG45078 + fau + CG45076 | 1 | 0.759 | -0.0681 | 0.305 |
| Prosbeta4 | 1 | 1.8 (active) | 0.739 | 3.1 |
| dtr | 1 | -0.569 | -0.137 | -0.74 |
| CG15082 | 1 | -2.52 (active) | -0.197 | -2.91 |
| CG15082 | 2 | -0.577 | -0.78 | -0.742 |
| trr | 1 | -0.147 | 0.199 | -1.42 |
| trr | 2 | 0.792 | 1.65 | 0.204 |
| Drsl6 | 1 | -0.24 | 0.39 | -0.833 |
| bero | 1 | 1.86 | -4.35 | 0.366 |
| bero | 2 | 0.0827 | 0.141 | 0.397 |
| PTP-ER | 1 | 1.12 | -7.05 | -0.956 |
| PTP-ER | 2 | 0.823 | 2.28 | 1.15 |
| PTP-ER | 3 | -0.602 | 0.567 | 0.491 |
